A mixed list of measured activities; the numbers were collected in NIAID ChemDB.

Shared fields: tests in culture; organism: Aspergillus niger; measure: MIC

Conditions beyond the fields shown may differ between rows.

structure | strain or isolate | read by | conditions | value
CC1CCC(C(C)C)C(OC(=O)/C=C/c2ccccc2)C1 |  |  |  | 9.77 µM
[Cl][Cu][Cl].c1ccc(CSc2cccc3cccnc23)nc1 |  | broth dilution / visual reading |  | 154 µM
O=C(CSc1nnc(-c2ccc(N=Cc3cccs3)cc2)o1)Nc1ccc(Cl)cc1 | MTCC 282 | broth dilution |  | 250 µg/mL
CC(=O)OC12CCC(C(=O)C1)C1C(=O)N(CCCCN3CCN(c4ccccn4)CC3)C(=O)C12 | DSM 1988 | broth dilution |  | >100 µM
c1ccc(CSc2cccc3cccnc23)nc1 |  | broth dilution / visual reading |  | >495 µM
CCCOC(=O)CC(c1nccn1C)c1nccn1C | ATCC 16404 | broth dilution | 24 h | >512 µg/mL
CC(=O)OC12CCC(C(=O)C1)C1C(=O)N(CCCN3CCN(c4ncccn4)CC3)C(=O)C12 | DSM 1988 | broth dilution |  | >100 µM
CC1CCC(C(C)C)C(OC(=O)c2ccccc2Br)C1 |  |  |  | 9.12 µM
Cc1onc(-c2ccccc2Cl)c1C(=O)N[C@@H]1C(=O)N2[C@@H]1SC(C)(C)[C@@H]2C(=O)O | ATCC 16404 | broth dilution | 24 h | >512 µg/mL
CC(=O)OC12CCC(C(=O)C1)C1C(=O)N(CCCCN3CCN(Cc4ccccc4)CC3)C(=O)C12 | DSM 1988 | broth dilution |  | >100 µM
O=C(NN1C(=O)/C(=C/c2cc3ccccc3nc2Cl)N=C1c1ccccc1)c1cccc(O)c1 | MTCC 282 | broth dilution |  | 100 µg/mL
Fc1ccc(N2COc3c(ccc4ccccc34)C2)cc1 | NCIM 545 |  |  | 10 µg/mL
O=C(NN1C(=O)/C(=C/c2cc3ccccc3nc2Cl)N=C1c1ccccc1)c1ccccc1 | MTCC 282 | broth dilution |  | 500 µg/mL
CC1CCC(C(C)C)C(OC(=O)c2ccc(Br)cc2)C1 |  |  |  | 9.12 µM
Cn1ccnc1C(CC(=O)O)c1nccn1C | ATCC 16404 | broth dilution | 48 h | >512 µg/mL
CCOC(=O)C(C#N)C(c1cc2cccc(C)c2n2nnnc12)P(=O)(OCC)OCC | NCIM 545 | agar diffusion |  | 10 µg/mL
COc1cccc(N2COc3c(ccc4ccccc34)C2)c1 | NCIM 545 |  |  | 10 µg/mL
CN[C@@H]1[C@H](O[C@H]2[C@H](O[C@H]3[C@H](O)[C@@H](O)[C@H](N=C(N)N)[C@@H](O)[C@@H]3N=C(N)N)O[C@@H](C)[C@]2(O)C=O)O[C@@H](CO)[C@H](O)[C@H]1O | ATCC 16404 | broth dilution | 48 h | <4 µg/mL
CC(=O)OC12CCC(C(=O)C1)C1C(=O)N(CCCN3CCN(c4ccccn4)CC3)C(=O)C12 | DSM 1988 | broth dilution |  | >100 µM
COc1ccc(-c2cc(-c3ccc(F)cc3)nc(NC(=O)CN3CCOCC3)n2)cc1 |  |  |  | 50 µg/mL
O=C(CSc1nnc(-c2ccc(N=Cc3cccs3)cc2)o1)Nc1ccccc1[N+](=O)[O-] | MTCC 282 | broth dilution |  | 500 µg/mL
CC1=C(Cl)C(O)=CC(=O)C12Oc1cc(O)c(Cl)c(C)c1C2=O | MTCC 282 | broth dilution |  | 100 µg/mL
COc1cccc(C(=O)OC2CC(C)CCC2C(C)C)c1 |  |  |  | 7.76 µM
COc1ccc(NC(=O)CSc2nnc(-c3ccc(N=Cc4cccs4)cc3)o2)cc1 | MTCC 282 | broth dilution |  | 1000 µg/mL
O=C(Cc1ccccc1)NN1C(=O)/C(=C/c2cc3ccccc3nc2Cl)N=C1c1ccccc1 | MTCC 282 | broth dilution |  | 1000 µg/mL
CC(=O)OC12CCC(C(=O)C1)C1C(=O)N(CCCCN3CCN(c4ccc(F)cc4)CC3)C(=O)C12 | DSM 1988 | broth dilution |  | >100 µM
O=C(Nc1nc2ccccc2s1)c1cn[nH]c1C(=O)c1ccc(Cl)cc1 |  | broth dilution |  | 1.25 µg/mL
O=C(NN1C(=O)/C(=C/c2cc3ccccc3nc2Cl)N=C1c1ccccc1)c1ccncc1 | MTCC 282 | broth dilution |  | 500 µg/mL
O=C(CSc1nnc(-c2ccc(N=Cc3cccs3)cc2)o1)Nc1ccc(F)cc1 | MTCC 282 | broth dilution |  | 1000 µg/mL
CCC(C)CC(C)CCCCCCCCC(=O)N[C@H]1C[C@@H](O)[C@H](NCCN)NC(=O)[C@@H]2[C@@H](O)CCN2C(=O)[C@H]([C@H](O)CCN)NC(=O)[C@H]([C@H](O)[C@@H](O)c2ccc(O)cc2)NC(=O)[C@@H]2C[C@@H](O)CN2C(=O)[C@H]([C@@H](C)O)NC1=O | ATCC 16404 | broth dilution |  | 64 µg/mL
CC[C@@]1(O)C[C@H](O[C@H]2C[C@H](N(C)C)[C@H](O[C@H]3C[C@H](O)[C@H](O[C@H]4CCC(=O)[C@H](C)O4)[C@H](C)O3)[C@H](C)O2)c2c(cc3c(c2O)C(=O)c2c(O)cccc2C3=O)[C@H]1C(=O)OC | NCPF 7162 |  |  | >100 µM
COc1ccc(N2COc3c(ccc4ccccc34)C2)cc1 | NCIM 545 |  |  | 25 µg/mL
COc1ccccc1N1CCN(CCCCN2C(=O)C3C4CCC(OC(C)=O)(CC4=O)C3C2=O)CC1 | DSM 1988 | broth dilution |  | >100 µM
COc1cccc2c1C(=O)c1c(O)c3c(c(O)c1C2=O)C[C@@](O)(C(=O)CO)C[C@@H]3O[C@H]1C[C@H](N)[C@@H](O)[C@H](C)O1 | NCPF 7162 |  |  | >100 µM

The first 4 rows once more:

structure,strain or isolate,read by,conditions,value
CC1CCC(C(C)C)C(OC(=O)/C=C/c2ccccc2)C1,,,,9.77 µM
[Cl][Cu][Cl].c1ccc(CSc2cccc3cccnc23)nc1,,broth dilution / visual reading,,154 µM
O=C(CSc1nnc(-c2ccc(N=Cc3cccs3)cc2)o1)Nc1ccc(Cl)cc1,MTCC 282,broth dilution,,250 µg/mL
CC(=O)OC12CCC(C(=O)C1)C1C(=O)N(CCCCN3CCN(c4ccccn4)CC3)C(=O)C12,DSM 1988,broth dilution,,>100 µM

Blank or dashed fields: not listed here.